A mixed list of measured activities; the numbers were collected in NIAID ChemDB.

All rows: tests on isolated targets; agent: HIV-1; target: Reverse transcriptase; read by: nucleotide incorporation / radiometric; measure: IC50

Blank or dashed fields: not listed here.

structure,strain or isolate,changes,value
CCN1c2ncc(CCOc3ccc(C(=O)O)c4c3CCCC4)cc2C(=O)N(C)c2ccc(OC)nc21,WT,,<0.1 µM
CCN1c2ncc(CCOc3ccc(C(=O)Nc4cccnc4C)cc3C)cc2C(=O)N(C)c2cccnc21,IIIB,RT-K103N Y181C,<0.05 µM
CCN1c2ncc(CCOc3ccc(CC(=O)O)c4ccccc34)cc2C(=O)Nc2c(C)cc(Cl)nc21,,RT-V106A,0.1–1 µM
CCN1c2ncc(CCOc3cccc4c3C(C)(C)OC(=O)N4)cc2C(=O)N(C)c2cccnc21,IIIB,,0.05–0.1 µM
CCN1c2ncc(CCOc3cccc(-c4ccc(C(=O)O)cc4)c3)cc2C(=O)N(C)c2cccnc21,IIIB,,>0.1 µM
CCN1c2ncc(CCOc3ccc4c(c3)CNC(=O)N4)cc2C(=O)N(C)c2cccnc21,IIIB,RT-K103N Y181C,>0.1 µM
Cc1cc(OCC(=O)Nc2ccc(S(N)(=O)=O)cc2Cl)cc(Oc2cc(Cl)cc(C#N)c2)c1,,,<20 µM
CCN1c2ncc(CCOc3ccc(/C=C(\C)C(=O)O)c4ccccc34)cc2C(=O)Nc2c(C)ccnc21,,RT-K103N Y181C,0.1–1 µM
CCN1c2ncc(CCOc3cccc4c3CCNC4=O)cc2C(=O)Nc2c(C)ccnc21,IIIB,,<0.05 µM
Cc1cc(C)cc(S(=O)(=O)c2c(C(N)=O)[nH]c3ccc(Cl)cc23)c1,,RT-L100I,0.06 µM
N#Cc1cc(Cl)cc(Oc2cc(OCc3nc4cccc(Cl)c4s3)ccc2Cl)c1,,,<20 µM
CCN1c2ncc(CCOc3ccc(C(=O)O)c4c3CCC4)cc2C(=O)N(C)c2ccc(Cl)nc21,WT,,<0.1 µM
C=CCO/N=C/c1cc(NC(=S)c2ccoc2C)ccc1Cl,,,6 µM
Cc1cccc(CS(=O)(=O)c2cccc[n+]2[O-])c1,,,161 µg/mL
Nc1nc2c(ncn2[C@H]2CC[C@@H](COP(=O)(O)OP(=O)(O)OP(=O)(O)O)O2)c(=O)[nH]1,IIIB,RT-1(IIIB),0.033 µM
N#CCOc1ccc(NC(=O)Cc2ccc(Oc3cc(C#N)cc(C#N)c3)c(Cl)c2)cc1,,,100 µM
N#Cc1cc(Cl)cc(Oc2cc(Cl)cc(OCc3nc4cccc(Cl)c4s3)c2)c1,,,<20 µM
CCN1c2ncc(CCc3cccc4[nH]cc(SC)c34)cc2C(=O)N(C)c2ccc(Cl)nc21,,RT-Y181C,>1 µM
N#Cc1cc(C#N)cc(Oc2ccc(CC(=O)Nc3ccccc3C(F)(F)F)cc2Cl)c1,,,100 µM
CCN1c2ncc(CCOc3ccc(NC(=O)NCC(=O)O)cc3C)cc2C(=O)N(C)c2cccnc21,IIIB,RT-K103N Y181C,>0.1 µM
COC(=O)c1ccc(NC(=O)Cc2ccc(Oc3cc(C#N)cc(C#N)c3)c(Cl)c2)cc1Cl,,,10 µM
CCN1c2ncc(CCc3ccccc3)cc2C(=O)N(C)c2c1ncc(C)c2C,WT,,<1 µM
CCCc1cc(=O)oc2c3c(c4c(c12)OC(C)(C)C=C4)O[C@H](C)C[C@@H]3O,,RT-L100I,9.7 µM
CCN1c2ncc(CCc3cc[n+]([O-])cc3)cc2C(=O)N(C)c2ccc(F)nc21,WT,,<1 µM
Cc1occc1C(=S)Nc1ccc(Cl)c(C(=O)OCC2CC2)c1,,RT-Y188H,>50 µM
N#Cc1cc(Cl)cc(Oc2cc(OCc3[nH]nc4nc(N)ccc34)cc(F)c2Cl)c1,,,<20 µM
COC(=O)CSc1ccc(NC(=O)Cc2ccc(Oc3cc(C#N)cc(C#N)c3)c(Cl)c2)cc1,,,100 µM
CCN1c2ncc(CCc3cccc4[nH]ccc34)cc2C(=O)N(C)c2cccnc21,WT,,<1 µM
CCN1c2ncc(CCOc3cccc4c3CNC(=O)N4)cc2C(=O)Nc2c(C)ccnc21,IIIB,RT-K103N Y181C,>0.1 µM
Nc1ncnc2c1ncn2[C@H]1CC[C@@H](COP(=O)(O)OP(=O)(O)OP(=O)(O)O)O1,,RT-A62V,3.9 µM
CCN1c2ncc(CCOc3ccc(C(=O)NN)cc3C)cc2C(=O)Nc2c(C)ccnc21,IIIB,RT-K103N Y181C,0.05–0.1 µM
N#Cc1cc(Cl)cc(Oc2cc(OCc3nc4cccc(Cl)c4o3)ccc2Cl)c1,,,<20 µM
CCN1c2ncc(CCOc3ccc(C(=O)Nc4nc(CC(=O)O)cs4)cc3C)cc2C(=O)N(C)c2cccnc21,IIIB,,<0.05 µM
Cc1occc1C(=S)Nc1ccc(Cl)c(/C=N/OC(C)(C)C)c1,,RT-K103N,>50 µM
CCN1c2ncc(CCOc3cccc4c3ccc[n+]4[O-])cc2C(=O)Nc2c(C)cc(Cl)nc21,,RT-K103N Y181C,0.091 µM
CCN1c2ncc(CCOc3ccc(C(=O)Nc4ccc[n+]([O-])c4)cc3C)cc2C(=O)Nc2c(C)ccnc21,IIIB,,<0.05 µM
CCN1c2ncc(CCOc3cccc4c3CN(C)C(=O)N4C)cc2C(=O)N(C)c2cccnc21,IIIB,,<0.05 µM
Cc1cc(C)cc(S(=O)(=O)c2c(C(=O)NCCO)[nH]c3ccc(Cl)cc23)c1,,RT-Y181I,6.7 µM
CCN1c2ncc(CCOc3cccc4c3C(C)C(=O)N4C)cc2C(=O)N(C)c2cccnc21,IIIB,RT-K103N Y181C,>0.1 µM
CN(C)S(=O)(=O)c1ccc2c(c1)CCN2C(=O)COc1cc(Cl)cc(Oc2cc(Cl)cc(C#N)c2)c1,,,<20 µM
CCN1c2ncc(CC(F)c3ccncc3)cc2C(=O)N(C)c2ccc(Cl)nc21,WT,,<1 µM
COc1cccc(F)c1C1SCC(=O)N1c1cccc(C)c1,,,28.4 µM
NS(=O)(=O)c1ccc(NC(=O)COc2cc(Cl)cc(Oc3cncc(Br)c3)c2)c(Cl)c1,,,<20 µM
CCN1c2ncc(CCOc3ccc(-c4ccc(C(=O)O)o4)cc3)cc2C(=O)N(C)c2cccnc21,IIIB,RT-K103N Y181C,0.05–0.1 µM
CCN1c2ncc(CCOc3cccc4[nH]c(=O)n(C)c34)cc2C(=O)N(C)c2cccnc21,IIIB,,0.05–0.1 µM
CCN1c2ncc(CCOc3ccc(C(=O)NCC4(C(=O)O)CCCC4)cc3C)cc2C(=O)N(C)c2cccnc21,IIIB,RT-K103N Y181C,>0.1 µM
Cc1cc(C)cc(S(=O)(=O)c2c(C(=O)NC(C)C(N)=O)[nH]c3ccc(Cl)cc23)c1,,RT-Y181I,0.13 µM
CCN1c2ncc(CCc3ccc(N(C)S(C)(=O)=O)cc3)cc2C(=O)N(C)c2ccc(Cl)nc21,WT,,~1 µM
Cc1ccccc1NC(=O)Cc1ccc(Oc2cc(C#N)cc(C#N)c2)c(Cl)c1,,,100 µM

For reference, 5 entries again:

structure | strain or isolate | changes | value
N#Cc1cc(C#N)cc(Oc2ccc(CC(=O)Nc3ccccc3C(F)(F)F)cc2Cl)c1 |  |  | 100 µM
CCN1c2ncc(CCOc3cccc(-c4ccc(C(=O)O)cc4)c3)cc2C(=O)N(C)c2cccnc21 | IIIB |  | >0.1 µM
C=CCO/N=C/c1cc(NC(=S)c2ccoc2C)ccc1Cl |  |  | 6 µM
CCN1c2ncc(CCOc3ccc(/C=C(\C)C(=O)O)c4ccccc34)cc2C(=O)Nc2c(C)ccnc21 |  | RT-K103N Y181C | 0.1–1 µM
CCN1c2ncc(CCOc3ccc(C(=O)Nc4ccc[n+]([O-])c4)cc3C)cc2C(=O)Nc2c(C)ccnc21 | IIIB |  | <0.05 µM

a–b is a range or a potency band. Conditions beyond the fields shown may differ between rows. ICn: concentration for n% inhibition.